Among the data in BindingDB's records for PubMed 40053382 (Sapienza University of Rome) are IC50 values, retold here.

pIC50: −log10 of the molar value.

Test [1] is described as follows: Inhibition of HIV-1 Reverse transcriptase L100I/K103N double mutant.
A short description of test [2]: Inhibition of HIV-1 Reverse transcriptase K103N mutant.
Test [3] can be described thus: Inhibition of HIV-1 Reverse transcriptase K103N/Y181C double mutant.

In the case of `Cc1cc(C#N)cc(C)c1Oc1nc(Nc2ccc(C#N)cc2)nc(N)c1Br`, the results for the negative logarithm of the IC50 (pIC50) in test [1], in test [2] and in test [3] were 7.72, 8.92 and 8.37, respectively.
